pKd: −log10 of the molar value. For at least one entry, the source does not settle the construct or the ends of the probe. For some assays here: Protein sequences can lack the tags named with them.
Experiments:
[1] = tested on: T1, NapM (Mycobacterium tuberculosis H37Ra); assay: EMSA; conditions: 1 uM probe, pH and temperature not stated, recombinant protein, label: FITC (5' end), probe letters rebuilt from the primers and the genome
T1 sequence (looked up, limits assumed): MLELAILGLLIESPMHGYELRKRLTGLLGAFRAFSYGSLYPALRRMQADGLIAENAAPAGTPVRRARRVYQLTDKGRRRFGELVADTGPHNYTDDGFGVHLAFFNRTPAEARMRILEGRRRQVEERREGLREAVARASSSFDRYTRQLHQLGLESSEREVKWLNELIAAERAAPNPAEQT

[2] = tested on: DnaA + NapM; assay: EMSA; conditions: pH and temperature not stated, recombinant protein, label: FITC (5' end), probe letters rebuilt from the primers and the genome

## GTGTCGTGAGCTCACCGATCTTTCGTTGCCCAAAATCGGCCAAGCGTTCGGCCGTGATCACACAACCGTCATGTACGCCCAACGCAAGATCCTGTCCGAGATGGCCGAGCGCCGTGAGGTCTTTGATCACGTCAAAGAACTCACCACTCGCATCCGTCAGCGCTCCAAGCGCTAGCACGGCGTGTTCTTCCGACAACGTTCTTAAAAAAACTTCTCTCTCCCAGGTCACACCAGTCACAGAGATTGGCTGTGAGTGTCGCTGTGCACAAACCGCGCACAGACTCATACAGTCCCGGCGGTTCCGTTCACAACCCACGCCTCATCCCCACCGACCCAACACACACCCCACAGTCATCGCCACCGTCATCCACAACTCCGACCGACGTCGACCTGCACCAAGACCAGACTGTCCCCAAACTGCACACCCTCTAATACTGTTACCGAGATTTCTTCGTCGTTTGTTCTTGGAAAGACAGCGCTGGGGATCGTTCGCTGGATACCACCCGCATAACTGGCTCGTCGCGGTGGGTCAGAGGTCAATGATGAACTTTCAAGTTGACGTGAGAAGCTCTACGGTTGTTGTTCGACTGCTGTTGCGGCCGTCGTGGCGGGTCACGCGTCATGGGCATTCGTCGTTGGCAGTCCCCACGCTAGCGGGGCGCTAGCCACGGGATCGAACTCATCGTGAGGTGAAAGGGCGCAATGGACGCGGCTACGACAAGAGTTGGCCTCACCGACTTGACGTTTCGTTTGCTACGAGAGTCTTTCGCCGATGCGGTGTCGTGGGTGGCTAAAAATCTGCCAGCCAGGCC (double strand) [oriC fragment]
[1]
  pKd: 6.34
[2]
  binding result: binds

From publication PMC6377630, “NapM enhances the survival of Mycobacterium tuberculosis under stress and in macrophages” (Communications Biology, 2019)
